The results in this text go back to the supplement of paper PMC9931576.

Sequences and labels used below:
B1: BD56-952 (protein)
chain 1: EVQLVQSGVEVKKPGESLRISCKGSGYRFTSYWITWVRHMPGKGLEWMGRIDPSDSYTNYSPSFQGHVTISTDKSLTTAYLQWSSLKASDTAMYYCARHPDGSGSYFNYYFDYWGQGTLVTVSS
chain 2: QSVLTQPPSVSGAPGQRVTISCTGSSSNIGAGYYVHWYQQLPGTAPKLLIYGNNNRPSGVPDRFSGSKSGTSASLAITGLRAEDEADYYCQSCDSSLSGVFGTGTKVTVL
B2: BD56-938 (protein)
chain 1: QVQLVESGGGLVKPGGSLRISCAASGFTFSDYYMSWIRQAPGKGLEWVSYISSGSSFTDYADSVKGRFTISRDNAKNSLWLRLTSLRDEDTAVYYCARVGPKTSSSTWYDDPQYKYHYMDVWGKGTTVAVSS
chain 2: EIVLTQSPGTLSLSPGERATLSCRASQSVSSTYLAWYQQRPGQAPRLLIYGASSRATGIPDRFSGSGSGTDFTLTISRLEPEDFAVYYCQQCGASPWTFGQGTKVEIK
B3: BD56-936 (protein)
chain 1: QVQLVQSGAVMKKPGSSVKVTCKASGGTFSSNSISWVRQAPGQGLEWMGRIIPILAIPNYAQKFQGRVTITADKSTSTAYMELSSLRSEDTAVYYCARDRGYSSSSASYYMDVWGKGTTVTVSS
chain 2: QSVLTQPPSVSGAPGQRVTISCTGDSSSIGAGYDVHWYQQLPGTAPKLLIYGSSNRPSGVPDRFSGSKSGTSASLAITGLQAEDEAEYYCQSYDSSLSDSVFGSGTKLTVL
B4: BD56-948 (protein)
chain 1: QVHLVQSGAEVKKPGASVKLSCKSSGYTFTSYSLHWVRQAPGQGLEWMGIINPSGGGTRYAQKFQGRVTMTRDTSTNTVYMELRSLRSDDTAVFYCAREGCSGTSCFGAWGQGTLVTVSS
chain 2: SYVLTQPPSVSVAPGQTARITCGGSDIGSKSVHWYQHKPGQAPVLVVYDDSDRPSGIPERFSGSNSGNTATLTISRVEAGDEADYYCQLFDGTTDHHYVFGSGTKVTVL
B5: BD56-944 (protein)
chain 1: QVQLVQSGAEVKKPGASVRVSCKASGYTFTSYGISWVRQAPGQGLEWMGWIGGYNDNTNYARDLQGRVTMTTDTSTSTAYMELRSLRSDDTAVYYCARVGEYYSDRSAYYFDHWGQGTLVTVSS
chain 2: EVVMTQSPATLSVSPGERATLSCRASQSVSRNLAWYQQKPGQAPRVLIYGASTRATGIPARFSGSGSGTEFTLTISSLQSEDFAVYYCQQYDNWPPEFTFGPGTKLNIK
B6: BD56-941 (protein)
chain 1: QVHLVQSGAEVKKPGASVKVSCKASGYTFTTFGISWVRQAPGQAFEWVGWISAYNGNTKIAQKFHGRVTMTADTSTSTAYMEVRSLRSDDTAIYYCARDNRDYGDALDYWGQGTLVTVSS
chain 2: DVQMTQSPSTLSASVGARVTITCRASQSISRWLAWYQQKPGKAPKLLVYQAFRLESGVPSRFSGSGSGTEFTLTISNLQPDDFATYYCQQYNTYSPYTFGQGTKLEIK

Human monoclonal antibodies against the spike receptor-binding domain (heavy:light variable regions). IC50 against pseudoviruses bearing the spike of naturally observed variants; lower = stronger; >10 µg/ml means not reached at the top dose. No active / inactive call. The stated detection limit is 0.0005 µg/ml; values near or below 0.001 µg/ml lie at the floor of the assay.

The target in the first assay is SARS-CoV-2 Omicron BA.1 spike pseudovirus. As to the kind of experiment: pseudovirus neutralization IC50; higher = weaker neutralization. How it is done:
(§1)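 Single-round VSV luciferase pseudovirus mixed with antibody dilutions for 1 h and put on Huh-7 cells for about a day; IC50 from the dose curve.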
Turning to B1, the “pseudovirus neutralization IC50” value came to 6.65 µg/mL.

For the molecule B2, the “pseudovirus neutralization IC50” value is 0.0469 µg/mL.

For the molecule B3, the “pseudovirus neutralization IC50” value amounted to 0.0626 µg/mL.

For the molecule B4, the “pseudovirus neutralization IC50” value is over 10 µg/mL.

For B5, the “pseudovirus neutralization IC50” value came to 1.15 µg/mL.

In the case of B6, the “pseudovirus neutralization IC50” value is over 10 µg/mL.

The target in another assay is SARS-CoV-2 Omicron BA.2 spike pseudovirus. Described as above. How it is done:
as §1
Consider B1, for which the “pseudovirus neutralization IC50” value came out at 7.29 µg/mL.

On to B2, for which the “pseudovirus neutralization IC50” value amounted to 0.0659 µg/mL.

Take B3: the “pseudovirus neutralization IC50” value was 0.0425 µg/mL.

B4: the “pseudovirus neutralization IC50” value was over 10 µg/mL.

Turning to B5, the “pseudovirus neutralization IC50” value worked out at 3.49 µg/mL.

Turning to B6, the “pseudovirus neutralization IC50” value was over 10 µg/mL.

The target of a further assay is SARS-CoV-2 Omicron BA.2.75 spike pseudovirus. Described as above. How it is done:
as §1
In the case of B1, the “pseudovirus neutralization IC50” value is 4.13 µg/mL.

Turning to B2, the “pseudovirus neutralization IC50” value was determined as 0.0824 µg/mL.

Turning to B3, the “pseudovirus neutralization IC50” value is 0.0786 µg/mL.

Regarding B4, the “pseudovirus neutralization IC50” value was over 10 µg/mL.

For the molecule B5, the “pseudovirus neutralization IC50” value stood at 1.46 µg/mL.

As for B6, the “pseudovirus neutralization IC50” value was over 10 µg/mL.

Another assay concerns the target SARS-CoV-2 Omicron BA.5 spike pseudovirus. The description is as above. How it is done:
as §1
Consider B1, for which the “pseudovirus neutralization IC50” value was 2.46 µg/mL.

On to B2, for which the “pseudovirus neutralization IC50” value turned out to be 0.0293 µg/mL.

For the molecule B3, the “pseudovirus neutralization IC50” value was over 10 µg/mL.

On to B4, for which the “pseudovirus neutralization IC50” value is over 10 µg/mL.

As to B5, the “pseudovirus neutralization IC50” value came to 3.79 µg/mL.

As for B6, the “pseudovirus neutralization IC50” value was over 10 µg/mL.

In another assay the target is SARS-CoV-2 Omicron BQ.1.1 spike pseudovirus. The assay is described as above. How it is done: as §1
On to B1, for which the “pseudovirus neutralization IC50” value is over 10 µg/mL.

On to B2, for which the “pseudovirus neutralization IC50” value turned out to be 5.33 µg/mL.

Regarding B3, the “pseudovirus neutralization IC50” value is over 10 µg/mL.

As to B4, the “pseudovirus neutralization IC50” value is over 10 µg/mL.

Take B5: the “pseudovirus neutralization IC50” value was determined as 3.03 µg/mL.

For B6, the “pseudovirus neutralization IC50” value is over 10 µg/mL.

The next assay concerns the target SARS-CoV-2 Omicron XBB spike pseudovirus. The description is as above. How it is done:
as §1
Consider B1, for which the “pseudovirus neutralization IC50” value was over 10 µg/mL.

As to B2, the “pseudovirus neutralization IC50” value came to 4.96 µg/mL.

Take B3: the “pseudovirus neutralization IC50” value is 4.09 µg/mL.

For B4, the “pseudovirus neutralization IC50” value was over 10 µg/mL.

Take B5: the “pseudovirus neutralization IC50” value was determined as 2.94 µg/mL.

Regarding B6, the “pseudovirus neutralization IC50” value is over 10 µg/mL.

Another assay concerns the target SARS-CoV-2 early D614G spike pseudovirus. The description is as above. How it is done: as §1
As to B1, the “pseudovirus neutralization IC50” value is over 10 µg/mL.

As for B2, the “pseudovirus neutralization IC50” value is 0.0119 µg/mL.

On to B3, for which the “pseudovirus neutralization IC50” value came to 0.169 µg/mL.

As to B4, the “pseudovirus neutralization IC50” value is over 10 µg/mL.

Consider B5, for which the “pseudovirus neutralization IC50” value stood at 3.15 µg/mL.

For B6, the “pseudovirus neutralization IC50” value was 0.117 µg/mL.
